From ChEMBL document CHEMBL3988442, “University of Dundee, Small-Polar-MMV Screening Library” (2021).

The filed quantity is “Percent Effect” (%).
How 0% and 100% were set is not recorded. Most values in the screen are low, and negative values occur.
The entries come from a sample that favours strong results.
A dash means the value is not listed here; it may have been measured.

Mtb glucose medium: 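Growth of Mycobacterium tuberculosis over 3 days (7H9 medium with glucose and tyloxapol); the read-out is not stated. Tested at 500 µM. Higher reads as more growth inhibition (inferred: compounds with an IC50 in retests scored well above the rest). Size under these conditions: about 18,000 compounds, about 1,400 of them at 50% or above in at least one test.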
Mtb cholesterol medium: 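Phenotypic screen: M. tuberculosis growth, cholesterol and DPPC medium, 4 days; the read-out is not stated. Compounds at 500 µM. Higher reads as more growth inhibition (inferred: compounds with an IC50 in retests scored well above the rest). Size under these conditions: about 18,000 compounds, about 900 of them at 50% or above in at least one test.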

Compound	Mtb glucose medium	Mtb cholesterol medium
C[C@@]1(O)CCN(Cc2cncn2C2CCCC2)C[C@@H]1O	-2.864%	-
CCn1ncc(C(C)N)c1C (stereo not drawn)	-0.08521%	-
COc1cc(Cl)ccc1CN	63.88%	-
COCCNC(=O)N1CCCN(C(=O)C(C)(C)C)CC1	-	11.81%
O=C(CCS(=O)(=O)c1ccccc1)Nc1ccccn1	-0.6823%	-
CNCCN1CCN(C(=O)OC(C)(C)C)CC1	-	-8.112%
CC1CCCN(C(=O)c2csc(S(N)(=O)=O)c2)C1 (stereo not drawn)	-2.069%	-
COc1cccc(-c2ncc(CN)s2)c1	65.16%	71.93%
CCCc1nnc(NC(=O)c2cccnc2OCC)s1	-8.35%	-
CC(C)c1cc(C(=O)N[C@@H]2CCOC[C@H]2O)cs1	25.31%	62.76%
CC(C)N(CC(=O)N1CCCC1)CC(C)(C)O	-	-2.511%
COc1ccc2c(c1)OCC(C(=O)N(C)CCC#N)C2 (stereo not drawn)	-	8.708%
c1ccc2[nH]c(N3CCNCC3)nc2c1	13.22%	18.91%
CN(CC(N)=O)C(=O)CCc1nc2ccccc2s1	-2.706%	-
Nc1nc(CCNC(=O)CN2CCOC2=O)cs1	-2.774%	-
c1cc2c(cc1CNC1CC1)OCO2	-	12.62%
CNC(=O)CSCc1nc(-c2ccccc2C)no1	66.58%	78.91%
Cc1nccn1CCNC(=O)C(C)(C)C	-8.743%	-
NCc1cc(N[C@H](CO)CC2CCCCC2)ncn1	63.43%	-
COCCOCC(=O)NCc1c(C)cc(C)nc1OC	-	13.73%
COC(=O)CN1CCN(Cc2ccccc2)CC1	17.04%	-
CCc1nnc(SCC(=O)Nc2cc(C)nn2C)[nH]1	-	-17.45%
Cc1ccsc1C(=O)NCc1ccnc(N(C)C)c1	42.41%	34.4%
O=C(CNC(=O)c1ccc2c(c1)OCO2)NCC1CC1	-	1.845%
CSc1cccc(CN(C)C(=O)CC2COCCN2)c1 (stereo not drawn)	18.48%	-
CC(O)c1cc2n(n1)CCN(Cc1cccnc1)C2 (stereo not drawn)	-	7.399%
Cc1nccc(C(C)N)n1 (stereo not drawn)	6.857%	-
COCC(C)(CCO)NCc1cc(C)no1 (stereo not drawn)	-	-6.456%
CCCc1nnc(NCCc2ccnn2C)o1	13.11%	-
CSc1ncc(CN)n1C	-14.28%	12.64%
NCC(=O)Nc1ccc2c(c1)OCCO2	19.63%	8.716%
O=C1NC(=O)c2cc(C(F)(F)F)ccc21	-	-2.612%
N#CCC(=O)C1CCCOC1 (stereo not drawn)	-12.24%	-
N#Cc1ccc(C(=O)NCC2CCCO2)cc1 (stereo not drawn)	39.03%	26.34%
NC(c1ccccc1)C1CCOCC1 (stereo not drawn)	-	7.139%
CS(=O)(=O)N1CCN(CCn2cncn2)CC1	-	7.109%
COCCN1CCN(c2ccccc2C#N)CC1	25.2%	-
COc1ccc(C(C)=O)cc1CC(=O)Nc1nncs1	1.189%	-
N[C@H]1C[C@@H](c2cc(NCCc3cscn3)ncn2)C1	-	8.456%
Cc1ccc(C(CN)N2CCCC2)o1 (stereo not drawn)	52.57%	101.7%
Cc1cc(C(=O)NCC(CO)c2ccccc2)ns1 (stereo not drawn)	73.01%	71.26%
CC(C)Cc1noc(-c2ccc(N(C)CCO)nc2)n1	69.77%	62.32%
N#CCc1ccc(-n2cnnn2)cc1	17.64%	-
c1cncc(CN2CCCOC(CN3CCCC3)C2)c1 (stereo not drawn)	12.85%	-
Cc1cc(NC(=O)Cn2ccc(=O)n(C)c2=O)no1	-5.023%	-
CCN(C)S(=O)(=O)N(CC)CC(O)c1ccc(C)cc1 (stereo not drawn)	72.48%	61.23%
O=S(=O)(Cc1ccccn1)Cc1ccccc1Cl	-	14.52%
COCCS(=O)(=O)Cc1cnn(-c2ccccc2)c1	37.69%	-
CCC(CO)NC(=O)c1cc(N(C)C)ccn1 (stereo not drawn)	-10.96%	-
CSc1ccc(NC(=O)NCCCNC(C)=O)cc1	14.52%	-0.9324%
NC(CCO)Cc1ccccc1 (stereo not drawn)	20.43%	-
O=C(Cn1cc(C(F)(F)F)ccc1=O)N1CCCC1	-3.914%	-
CC(=O)c1cccc(S(=O)(=O)N(C)CC(=O)N(C)C)c1	0.1184%	-12.55%
COc1ccc(S(=O)(=O)N2CCC(=O)C(C)C2)cc1C (stereo not drawn)	25.3%	-
NS(=O)(=O)c1ccc(NC(=O)N2CCCCC2)cc1	-	-4.468%
CCN1CCN(C(=O)N(CC)CC)CC1	-	1.316%
Cc1cccc(=O)n1CCC(=O)N1CCOCC(O)C1 (stereo not drawn)	0.9616%	-
CN(C)S(=O)(=O)N(C)CCc1ccccn1	2.286%	-
CC(C)c1ncc(C(=O)N2CCS(=O)(=O)CC2)cn1	55.08%	-
Cc1ccc(C(N)=O)c(O)c1	-	4.677%
Cc1occc1C(=O)N(C)Cc1cnn(C)c1	-	-29.02%
CNCC(=O)Nc1cc(Cl)c(OCCOC)c(Cl)c1	54.01%	-
COC(=O)N1CCC(NC(C)CCn2cccn2)CC1 (stereo not drawn)	11.46%	-
CCNc1ncc(C(=O)N2CCCCC2)s1	92.69%	64.32%
CCCS(=O)(=O)NCc1cccc(OCCN(C)C)c1	-	19.62%
Cc1cc(C(=O)NCCCN(C)C)c(C)o1	-	-9.594%
CCN(CC)CCNCCCN	-	-1.071%

Repeated from the top, 5 entries:

Compound	Mtb glucose medium	Mtb cholesterol medium
C[C@@]1(O)CCN(Cc2cncn2C2CCCC2)C[C@@H]1O	-2.864%	-
CCn1ncc(C(C)N)c1C (stereo not drawn)	-0.08521%	-
COc1cc(Cl)ccc1CN	63.88%	-
COCCNC(=O)N1CCCN(C(=O)C(C)(C)C)CC1	-	11.81%
O=C(CCS(=O)(=O)c1ccccc1)Nc1ccccn1	-0.6823%	-